These results are taken from PMC7232446, “Fc-Based Recombinant Henipavirus Vaccines Elicit Broad Neutralizing Antibody Responses in Mice” (Viruses, 2020).

For series [1], the target named is G protein of Bangladesh Nipah virus, soluble extracellular domain (Nipah virus (Bangladesh strain)).
Series [2] concerns the molecule itself.

Several values for one entry are separate records, joined by “and”; a condition that tells them apart may be missing. Equal entries are not always repeated.

Take “G protein of Bangladesh Nipah virus, soluble extracellular domain”: the stoichiometry N in series [1] was 2 and 4.

B1: G protein of Malaysia Nipah virus, soluble extracellular domain (domain or fragment)
chain: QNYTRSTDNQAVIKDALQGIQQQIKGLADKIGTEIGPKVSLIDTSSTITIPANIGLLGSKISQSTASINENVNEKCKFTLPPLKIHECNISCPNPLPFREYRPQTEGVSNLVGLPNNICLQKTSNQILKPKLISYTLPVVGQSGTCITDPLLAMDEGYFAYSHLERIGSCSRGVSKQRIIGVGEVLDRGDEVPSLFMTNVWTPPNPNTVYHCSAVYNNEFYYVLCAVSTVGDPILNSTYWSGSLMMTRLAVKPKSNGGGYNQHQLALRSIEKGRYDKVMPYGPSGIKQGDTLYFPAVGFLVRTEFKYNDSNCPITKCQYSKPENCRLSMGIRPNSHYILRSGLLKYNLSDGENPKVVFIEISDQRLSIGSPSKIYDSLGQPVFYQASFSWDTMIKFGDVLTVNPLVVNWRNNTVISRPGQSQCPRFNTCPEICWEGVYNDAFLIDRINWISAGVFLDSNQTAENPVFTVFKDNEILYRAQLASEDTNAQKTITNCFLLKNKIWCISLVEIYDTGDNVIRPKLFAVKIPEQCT
As to B1, the “stoichiometry N” value in series [2] was found to be 2.

In general, stoichiometry N refers to the number of molecules, sites or subunits per partner or assembly.
